Consider one compound from patent publication US9540389B2, “Antimicrobial potentiators” (priority 2013, dated 2017).

In assay [1] the test system is Escherichia coli 285 (AB1157, CIPR, overexpresses efflux). To be noted: MIC (WT)/MIC (mutant) in the absence of EPI.
Assay [2] concerns Escherichia coli 287 (AB1157, CIPR, overexpresses efflux). To be noted: MIC (WT)/MIC (mutant) in the absence of EPI.

As for `CO/N=C(\C(=O)N[C@@H]1C(=O)N2C(C(=O)O)=C(COC(C)=O)CS[C@H]12)c1csc(N)n1` [CEF, cefotaxime], the MIC ratios mutant in assay [1] and in assay [2] was 0.25 throughout.
